Compound potency records, mixed from different reports. Data source: NIAID ChemDB in PubChem.

All rows: whole-cell or culture tests; agent: Candida albicans; read by: agar diffusion / agar; read-out: zone

Neighbouring rows are from separate reports.

| SMILES | strain or isolate | dose | result |
|---|---|---|---|
| CC(C)=CCOc1ccc(C2CC(=O)c3c(O)cc(O)cc3O2)cc1O | ATCC 10231 | 100 µg/mL | 10 mm |
| CCC(C)n1ncn(-c2ccc(N3CCN(c4ccc(OC[C@H]5CO[C@](Cn6cncn6)(c6ccc(Cl)cc6Cl)O5)cc4)CC3)cc2)c1=O | ATCC 2091 | 100 mg/mL | >21 mm |
| CCOC(=O)C1=C(N)Sc2[nH]c(=S)[nH]c(=S)c2C1c1ccc(Cl)cc1 | - | 10000 µg/mL | 14 mm |
| CCCc1c(N2CCN(c3ccccc3OC)CC2)[nH]c(=O)[nH]c1=O | IFO 0583 | 200 µg/disc | <10 mm |
| COc1cc(C2c3c(nc(N)c(C#N)c3N)Oc3[nH]c(=S)[nH]c(=O)c32)cc(OC)c1OC | - | 10000 µg/mL | 10 mm |
| CCN(CC)N1C(=O)C(C(Sc2ccccc2)c2ccc(Cl)cc2)SC1=S | ATCC 2091 | 100 mg/mL | 16–20 mm |
| CCc1c(N2CCN(c3ccccc3)CC2)[nH]c(=O)[nH]c1=O | IFO 0583 | 200 µg/disc | <10 mm |
| C[C@@H]1[C@H](O)[C@@H](C)/C=C/C=C/CC/C=C/C=C/C=C/C=C/C(O[C@H]2O[C@H](C)[C@@H](O)[C@H](N)[C@@H]2O)CC2O[C@](O)(CC(O)C(O)CCC(O)CC(O)CC(O)CC(=O)O[C@H]1C)CC(O)C2C(=O)O | ATCC 14053 | 100 µg/mL | 0 mm |
| O=C1NC(=S)S/C1=C\c1ccc[nH]1 | ATCC 2091 | 100 mg/mL | 5–9 mm |
| CCc1c(=O)[nH]c(=O)n2[nH]nnc12 | IFO 0583 | 200 µg/disc | <10 mm |
| COc1cc(C2CC(=O)c3c(O)cc(O)cc3O2)ccc1OCC=C(C)C | ATCC 10231 | 100 µg/mL | 0 mm |
| CCCc1c(N2CCN(c3cccc(C(F)(F)F)c3)CC2)[nH]c(=O)[nH]c1=O | IFO 0583 | 200 µg/disc | <10 mm |
| C[C@@H]([C@H]1CC[C@H](C)C(=O)C1)[C@H]1CC[C@]2(C)C3=C(CC[C@@]12C)[C@]1(C)CC[C@H](O)C(C)(C)[C@H]1CC3 | MTCC 183 | 0.5 µg/disc | 14 mm |
| Cc1cccc(C(Sc2ccccc2)C2SC(=S)NC2=O)c1 | ATCC 2091 | 100 mg/mL | 16–20 mm |
| COc1cc(C2C(C#N)=C(N)Oc3[nH]c(=S)[nH]c(=O)c32)cc(OC)c1OC | - | 10000 µg/mL | 10 mm |
| O=C1NC(=S)SC1C(Sc1ccccc1)c1ccc2ccccc2c1 | ATCC 2091 | 100 mg/mL | 10–15 mm |
| CCO[C@@H]1C[C@@H]([C@H](C)[C@H]2CC[C@]3(C)C4=C(CC[C@@]23C)[C@]2(C)CC[C@H](O)C(C)(C)[C@H]2CC4)CC[C@@H]1C | MTCC 183 | 3 µg/disc | 20 mm |
| Clc1ccccc1C(c1ccccc1)(c1ccccc1)n1ccnc1 | IFO 0583 | 100 µg/disc | 21 mm |
| CCN(CC)N1C(=O)C(C(Sc2ccccc2)c2c(Cl)cc(C)cc2Cl)SC1=S | ATCC 2091 | 100 mg/mL | 16–20 mm |

Repeating the final 2 entries:

| SMILES | strain or isolate | dose | result |
|---|---|---|---|
| Clc1ccccc1C(c1ccccc1)(c1ccccc1)n1ccnc1 | IFO 0583 | 100 µg/disc | 21 mm |
| CCN(CC)N1C(=O)C(C(Sc2ccccc2)c2c(Cl)cc(C)cc2Cl)SC1=S | ATCC 2091 | 100 mg/mL | 16–20 mm |

An empty or dashed field is not shown. a–b is a range or a potency band. Zone: diameter of growth inhibition.